Anti-infective test results gathered from many reports (values: NIAID ChemDB through PubChem).

Shared fields: host cell toxicity; cells: CEM; read-out: CC50

a–b is a range or a potency band. CCn is the concentration with n% toxicity to the cells. Rows are shuffled and stem from different studies.

smiles	value
Cc1cnc2n1S(=O)(=O)c1cc(C(=O)O)c(Cl)cc1S2	>200 µM
Nc1nc(OC[C@H]2CC[C@@H](CO)O2)c2[nH]cnc2n1	>250 µM
CC(C)(C)c1ccc(NC(=O)c2ccccc2SSc2ccccc2C(=O)Nc2ccc(C(C)(C)C)cc2)cc1	75 µM
Nc1nc(Cl)nc2c1ncn2[C@H]1O[C@H](CO)[C@@H](F)[C@@H]1F	>100 µM
CCCOCN1c2ccccc2C(=O)NS1(=O)=O	120 µg/mL
CCCCCCC(=O)Oc1ccc(COP(=O)(OCc2ccc(OC(=O)CCCCCC)cc2)OP(=O)([O-])OC[C@@H]2C=C[C@H](n3ccc(=O)[nH]c3=O)O2)cc1	109 µM
Nc1nc2c(ncn2[C@H]2C=C[C@@H](CO)C2)c(=O)[nH]1	60.5 µg/mL
CC(C)(C)OC(=O)[C@H](CCC(N)=O)NC(=O)c1ccccc1SSc1ccccc1C(=O)N[C@@H](CCC(N)=O)C(=O)OC(C)(C)C	91 µM
CC(C)Oc1ccc(NC(=O)c2ccccc2SSc2ccccc2C(=O)Nc2ccc(OC(C)C)cc2)cc1	67 µM
COC(=O)[C@@H](NP(=O)(OC[C@@H]1C=C[C@H](n2cc(C)c(=O)[nH]c2=O)O1)Oc1ccccc1)c1ccccc1	≥250 µM
C=C(C)[C@@H]1CC[C@]2(C(=O)NCCCCCCCC(=O)N[C@@H](CCCCN)C(=O)O)CC[C@]3(C)[C@H](CC[C@@H]4[C@@]5(C)CC[C@H](O)C(C)(C)[C@@H]5CC[C@]43C)[C@@H]12	>3 µM
CCCCCCCCCCCC(=O)Oc1ccc(COP(=O)(OCc2ccc(OC(=O)CCCCCCCCCCC)cc2)OP(=O)([O-])OC[C@@H]2C=C[C@H](n3ccc(=O)[nH]c3=O)O2)cc1	116 µM
COc1cccc(F)c1C1SCC(=O)N1c1cccc(C)c1	39.38 µM
NC1=NNC2(C(N)=N1)c1ccccc1-c1ccccc12	81 µM
CCC(C)NC(=O)c1ccccc1SSc1ccccc1C(=O)NC(C)CC	15 µM
Cc1cn([C@@H]2O[C@H](CO[Si](C)(C)C(C)(C)C)[C@@]3(OS(=O)(=O)C=C3N)[C@H]2O[Si](C)(C)C(C)(C)C)c(=O)[nH]c1=O	>20 µM
Cc1cn([C@H]2CC[C@@H](CO)O2)c(=O)[nH]c1=S	>93 µM
Cc1ccc(C)c(CS(=O)c2ccc(Cl)c[n+]2[O-])c1	31 µg/mL
Nc1nccc(OC[C@@H]2O[C@H](CO)[C@@H](O)[C@H]2O)n1	>250 µM
C[C@H](CCC(=O)O)[C@H]1CC[C@H]2[C@@H]3[C@H](O)C[C@@H]4C[C@H](O)CC[C@]4(C)[C@H]3C[C@H](O)[C@]12C	0.01 µM
CC1(CO)CCC(Cn2cnc3c(Cl)nc(N)nc32)C1(C)C	17.5 µg/mL
C=C(C)[C@@H]1CC[C@]2(C(=O)NCCCCCCCC(=O)NCCC(=O)O)CC[C@]3(C)[C@H](CC[C@@H]4[C@@]5(C)CC[C@H](O)C(C)(C)[C@@H]5CC[C@]43C)[C@@H]12	>3 µM
CC(=O)Oc1ccc(COP(=O)(OCc2ccc(OC(C)=O)cc2)OC[C@@H]2C=C[C@H](n3cc(C)c(=O)[nH]c3=O)O2)cc1	58 µM
CCCCCCC(=O)Oc1ccc(COP(=O)(OCc2ccc(OC(=O)CCCCCC)cc2)OP(=O)([O-])OC[C@@H]2CC[C@H](n3ccc(=O)[nH]c3=O)O2)cc1	124 µM
O=C(c1ccccc1SSc1ccccc1C(=O)N1CCOCC1)N1CCOCC1	50 µM
Nc1nc(=O)n([C@@H]2O[C@H](CO)[C@@H](CO)[C@@H]2F)cc1F	≥100 µM
O=c1ccn([C@H]2CC[C@@H](CO)O2)c(=O)[nH]1	>250 µM
Cc1cn([C@H]2C[C@H](N=[N+]=[N-])[C@@H](COP(=O)(OCCC#N)O[C@H]3CC[C@@]4(C)C(=CC[C@@H]5[C@@H]4CC[C@]4(C)C([C@H](C)CCCC(C)C)CC[C@@H]54)C3)O2)c(=O)[nH]c1=O	>200 µM
O=C(Nc1cccc(O)c1)c1ccccc1SSc1ccccc1C(=O)Nc1cccc(O)c1	22 µM
CC1(CO)CCC(Cn2cnc3c(=O)[nH]c(N)nc32)C1(C)C	>200 µg/mL
CN[C@H](CC(C)C)C(=O)N[C@H]1C(=O)N[C@@H](CC(N)=O)C(=O)N[C@H]2C(=O)N[C@H]3C(=O)N[C@H](C(=O)N[C@H](C(=O)O)c4cc(O)cc(O)c4-c4cc3ccc4O)[C@H](O)c3ccc(c(Cl)c3)Oc3cc2cc(c3O[C@@H]2O[C@H](CO)[C@@H](O)[C@H](O)[C@H]2O[C@H]2C[C@](C)(N)[C@H](O)[C@H](C)O2)Oc2ccc(cc2Cl)[C@H]1O	>100 µM
CC(C)c1c(C(=O)c2ccccc2)n(CC2CC=CC2)c(=O)[nH]c1=O	>1180 µM
OC[C@H]1O[C@@H](n2c(Br)nc3cc(Cl)c(Cl)cc32)[C@H](O)[C@@H]1O	35–72 µM
FC(F)(F)[C@@]1(C#CC2CC2)OC(=S)Nc2ccc(Cl)cc21	>10 µM
O=C1N=C2SC=C(NC(=S)Nc3ccccc3)N2NC12c1ccccc1-c1ccccc12	95 µM
O=C(NC(CC1CCCC1)C(=O)O)c1ccccc1SSc1ccccc1C(=O)NC(CC1CCCC1)C(=O)O	47 µM
C[C@H](Cn1cnc2c(N)ncnc21)OCP(=O)(O)O	>250 µM
COC(=O)CC(OP(=O)(OC[C@@H]1C=C[C@H](n2cc(C)c(=O)[nH]c2=O)O1)OC(CC(=O)OC)c1ccc(OC(C)=O)cc1)c1ccc(OC(C)=O)cc1	19 µM
COc1cccc(F)c1C1SCC(=O)N1c1nccc(C)n1	>313 µM
Cc1cc(C)cc(C(=O)c2c(C(C)C)c(=O)[nH]c(=O)n2CC2CC=CC2)c1	>1130 µM
Fc1ccccc1C1SCc2nc3ccccc3n21	>126 µM
COC(=O)CNP(=O)(OC[C@@H]1C=C[C@H](n2cc(C)c(=O)[nH]c2=O)O1)Oc1ccccc1	≥250 µM
COc1cccc(F)c1C1SCC(=O)N1c1cccc(C)n1	162 µM
NS(=O)(=O)c1ccc(NC(=O)c2ccc(SSc3ccc(C(=O)Nc4ccc(S(N)(=O)=O)cc4)cc3)cc2)cc1	>100 µM
Cc1cn([C@H]2C=C[C@@H](CO)O2)c(=O)[nH]c1=O	174 µM
O=C1O[C@](C#CC2CC2)(C(F)(F)F)c2cc(Cl)ccc2N1CN1CCN(c2ccccc2)CC1	>10 µM
Nc1ccnc(OC[C@H]2CC[C@@H](CO)O2)n1	>250 µM
CC(C)(C)[Si](C)(C)OCC1O[C@@H](NC(N)=O)C(O[Si](C)(C)C(C)(C)C)C12OS(=O)(=O)C=C2N	250 µM
C=C(C)[C@@H]1CC[C@]2(C(=O)NCCCCCCCC(=O)N(C)CC(=O)O)CC[C@]3(C)[C@H](CC[C@@H]4[C@@]5(C)CC[C@H](O)C(C)(C)[C@@H]5CC[C@]43C)[C@@H]12	>3 µM
CCc1c(Oc2cc(C)cc(C)c2)n(CCC2C=CCC2)c(=O)[nH]c1=O	>1120 µM
CC(=O)N[C@H]1OC(CO[Si](C)(C)C(C)(C)C)C2(OS(=O)(=O)C=C2N)C1O[Si](C)(C)C(C)(C)C	8 µM
Cc1cc2c(cc1Cl)Sc1ncc(C)n1S2(=O)=O	>200 µM
Nc1nc(Cl)cc(OC[C@H]2CC[C@@H](COCc3ccccc3)O2)n1	110 µM
C=C(C)[C@@H]1CC[C@]2(C(=O)NCCCCCCCC(=O)NC(C)C(=O)O)CC[C@]3(C)[C@H](CC[C@@H]4[C@@]5(C)CC[C@H](O)C(C)(C)[C@@H]5CC[C@]43C)[C@@H]12	>3 µM
CC1(CO)CCC(Cn2nnc3c(Cl)nc(N)nc32)C1(C)C	17 µg/mL
O=C(O)CC[C@H](CC1CCCCC1)NC(=O)c1ccccc1SSc1ccccc1C(=O)N[C@H](CCC(=O)O)CC1CCCCC1	8.5 µM
Nc1nc(OC[C@H]2CC[C@@H](COCc3ccccc3)O2)c2[nH]cnc2n1	191 µM
O=C(CSC1=NNC2(C(=O)N1)c1ccccc1-c1ccccc12)NC(=S)Nc1ccccc1	35 µM
COc1cccc(F)c1C1SCC(=O)N1c1cc(C)cc(C)n1	209 µM
Nc1nc(Cl)cc(OC[C@H]2O[C@H](COCc3ccccc3)[C@@H](OCc3ccccc3)[C@H]2OCc2ccccc2)n1	>250 µM
Oc1cccc(C2SCc3nc4ccccc4n32)c1	>127 µM
CC(C)C(=O)Oc1ccc(COP(=O)(OCc2ccc(OC(=O)C(C)C)cc2)OP(=O)([O-])OC[C@@H]2CC[C@H](n3ccc(=O)[nH]c3=O)O2)cc1	>250 µM
O=C(NNc1ccccc1)c1ccccc1SSc1ccccc1C(=O)NNc1ccccc1	5.2 µM
COC(=O)[C@H](CCCCN)NC(=O)c1ccccc1SSc1ccccc1C(=O)N[C@@H](CCCCN)C(=O)OC	>100 µM
CCc1c(Oc2cc(C)cc(C)c2)n(CCC2CCCC2)c(=O)[nH]c1=O	84.8 µM
O=C(O)C(SC1=NNC2(C(=O)N1)c1ccccc1-c1ccccc12)SC1=NNC2(C(=O)N1)c1ccccc1-c1ccccc12	15 µM
O=S(=O)(Cc1ccccc1I)c1cccc[n+]1[O-]	30 µg/mL
CCCC[C@@H](CC(=O)O)NC(=O)c1ccccc1SSc1ccccc1C(=O)N[C@@H](CCCC)CC(=O)O	>100 µM
C=CCNC(=O)NC(=O)CSC1=NNC2(C(=O)N1)c1ccccc1-c1ccccc12	31 µM